Pooled drug test results. Numbers come from NIAID ChemDB, via PubChem.

Shared fields: host cell toxicity; cell line: MT-4; endpoint: CC50

CCn is the concentration with n% toxicity to the cells.

{"structure": "CCC(C)Oc1nc(Cc2cccc(C)c2)c(C)c(=O)[nH]1", "result": ">350 µM"}
{"structure": "Nc1nccc2c1ncn2[C@@H]1C=C[C@@H](O)[C@H]1O", "read by": "trypan blue", "result": "3.3 µg/mL"}
{"structure": "Cc1cn([C@@H]2O[C@H](CO[Si](C)(C)C(C)(C)C)[C@@]3(OS(=O)(=O)C=C3N)[C@H]2O[Si](C)(C)C(C)(C)C)c(=O)[nH]c1=O", "result": ">50 µM"}
{"structure": "Cc1cc(C#N)cc(C)c1Oc1ccc([N+](=O)[O-])c(NC2CCN(Cc3ccc(C(N)=O)cc3)CC2)n1", "read by": "MTT", "result": "27 µM"}
{"structure": "Nc1ncnc2c1ncn2C1CCC1", "result": "277 µM"}
{"structure": "Cc1cn([C@H]2C[C@H](N=[N+]=[N-])[C@@H](CO)O2)c(=O)[nH]c1=O", "result": "8 µM"}
{"structure": "CCOC(=O)P(=O)(OCc1ccc(Cl)cc1)OCc1ccc(Cl)cc1", "result": ">10 µM"}
{"structure": "Cc1cn([C@H]2C[C@@H](N=[N+]=[N-])[C@@H](CO)O2)c(=O)[nH]c1=O", "read by": "MTT", "result": ">93 µM"}
{"structure": "C1CNCCNCC(CCCC2CNCCNCCCNCCNC2)CNCCNC1", "result": "300 µM"}
{"structure": "C[C@]1(CO)O[C@@H](n2ccc(N)nc2=O)[C@@H](O)[C@@H]1O", "result": "1.2 µM"}
{"structure": "Cc1cc(C)cc(Cc2[nH]c(=O)[nH]c(=O)c2C)c1", "result": ">410 µM"}
{"structure": "CCCCN(CC)C(=O)Oc1nsnc1-c1c(Cl)cccc1Cl", "result": "44 µM"}
{"structure": "O=C(N/N=C/c1cc(Br)ccc1O)c1csc(N2N=C(c3ccccc3)CC2c2ccc(Cl)cc2)n1", "read by": "MTT / absorbance", "result": ">125 µM"}
{"structure": "Cc1cc(C#N)cc(C)c1Oc1ccc(N)c(NC2CCN(Cc3ccncc3)CC2)n1", "read by": "MTT", "result": "31 µM"}
{"structure": "O=c1[nH]cnc2c1ncn2[C@H]1CC[C@@H](CO)O1", "result": "834.2 µM"}
{"structure": "CC(C)Nc1cccnc1N1CCN(C(=O)c2cc3cc(NS(C)(=O)=O)ccc3[nH]2)CC1", "read by": "MTT / absorbance", "result": "30.4 µM"}
{"structure": "CCOP(=O)(OCC)C(F)(F)C[C@@]1(O)CO[C@@H](n2cnc3c(N)nc(F)nc32)C1", "read by": "MTT", "result": ">100 µM"}
{"structure": "COc1cc(O)c2c(c1)C(=O)c1c(cc3c(c1O)-c1c(cc(C)c(C(=O)N[C@H](C)C(=O)O)c1O)[C@H](O[C@@H]1O[C@H](C)[C@H](O)[C@H](O[C@@H]4OC[C@@H](O)[C@H](O)[C@H]4O)[C@H]1O)[C@H]3O)C2=O", "result": ">100 µg/mL"}
{"structure": "O=C(N/N=C/c1ccccc1)c1csc(N2N=C(c3ccccc3)CC2c2ccc(Cl)cc2)n1", "read by": "MTT / absorbance", "result": "0.45 µM"}
{"structure": "CCC(C)Oc1cc(N)nc(Sc2ccc(Cl)cc2)n1", "result": "106 µM"}
{"structure": "C1CNCCNCCNCCNCCN1", "result": "8.3 µM"}
{"structure": "COc1nc(Cc2cc(C)cc(C)c2)cc(=O)[nH]1", "result": ">410 µM"}
{"structure": "C=C1C[C@@H](n2cnc3c(N)ncnc32)[C@@H]1CO", "result": ">100 µM"}
{"structure": "CCC(C)Oc1cc(N)nc(Sc2ccccc2Cl)n1", "result": "87 µM"}
{"structure": "Cc1ccnc2c1NC(=O)c1cccnc1N2C1CC1", "result": ">50 µM"}
{"structure": "CSc1nc(N)nc2c1ncn2[C@H]1CC[C@@H](CO)O1", "result": "181.2 µM"}
{"structure": "CCC(C)Oc1cc(N)nc(Sc2ccc(F)cc2)n1", "result": "67.5 µM"}
{"structure": "C=C1[C@@H](CO)C[C@H]1n1cnc2c(N)ncnc21", "result": "100 µM"}
{"structure": "Cc1ccc(NC(=O)CSc2nncnc2-c2ccccc2Cl)c([N+](=O)[O-])c1", "read by": "MTT", "result": "158 µM"}
{"structure": "CN(C)C(=O)Oc1nsnc1-c1ccc(Cl)cc1Cl", "result": "77 µM"}
{"structure": "CC(C)(C)NC(=O)[C@@H]1CSCN1C(=O)[C@@H](O)[C@H](Cc1ccccc1)NC(=O)[C@H](CC(F)(F)F)NC(=O)COc1cccc2cnccc12", "read by": "MTT", "result": "25 µg/mL"}
{"structure": "Cc1cc(C)c(Oc2ccc(N)c(NC3CCN(Cc4ccc(S(N)(=O)=O)cc4)CC3)n2)c(C)c1", "read by": "MTT", "result": "26 µM"}
{"structure": "Cc1cn([C@H]2C[C@H](N=[N+]=[N-])[C@@H](CO)O2)c(=O)[nH]c1=O", "read by": "MTT", "result": ">1 µg/mL"}
{"structure": "Cc1c(CC23CC4CC(CC(C4)C2)C3)nc(SCC(=O)Nc2ccc(C#N)cc2)[nH]c1=O", "read by": "MTT / absorbance", "result": "6.69 µM"}
{"structure": "CCOC(=O)c1csc(N2N=C(c3ccccc3)CC2c2ccc(Cl)cc2)n1", "read by": "MTT / absorbance", "result": "11.51 µM"}
{"structure": "CN(C)C(=O)Oc1nsnc1-c1c(Cl)cccc1Cl", "result": "190 µM"}
{"structure": "COC(=O)[C@@H](NC(=O)Cc1ccccc1)[C@@H]1N[C@@H](C(=O)NCCNC(=O)[C@@H]2N[C@@H]([C@H](NC(=O)Cc3ccccc3)C(=O)OC)SC2(C)C)C(C)(C)S1", "result": ">100 µM"}
{"structure": "O=C(N/N=C/c1cccc(O)c1)c1csc(N2N=C(c3ccccc3)CC2c2ccc(Cl)cc2)n1", "read by": "MTT / absorbance", "result": "66.85 µM"}
{"structure": "C=C1[C@H](CO)[C@@H](O)C[C@@H]1n1cnc2c(=O)[nH]c(N)nc21", "read by": "MTT", "result": ">28 µM"}
{"structure": "CCn1cc(C(=O)O)c(=O)c2cc(F)c(N3CCN(c4ccccc4OC)CC3)c(OC(F)F)c21", "result": "3.2 µM"}
{"structure": "O=C(Oc1nsnc1-c1c(Cl)cccc1Cl)N1CCCCC1", "result": "221 µM"}
{"structure": "Nc1ncnc2c1ncn2[C@H]1C[C@]2(CO1)CC(F)(F)P(=O)(O)O2", "read by": "MTT", "result": ">100 µM"}
{"structure": "CC(C)=CCN1Cc2cccc3[nH]c(=S)n(c23)C[C@@H]1C", "result": ">350 µM"}
{"structure": "CCC(C)Oc1nc(N)cc(S(=O)(=O)c2ccccc2)n1", "result": "90 µM"}
{"structure": "CCOCn1c(SC)nc(CC)c1Cc1ccccc1", "read by": "MTT", "result": "34 µM"}
{"structure": "CCOP(=O)(OCC)C(F)(F)C[C@@]1(O)CO[C@@H](n2cnc3c(N)ncnc32)C1", "read by": "MTT", "result": ">100 µM"}
{"structure": "CCCCCCCCOC(=O)P(=O)(OCc1ccc(Cl)cc1)OCc1ccc(Cl)cc1", "result": ">10 µM"}
{"structure": "O=C(N/N=C/c1cccc([N+](=O)[O-])c1)c1csc(N2N=C(c3ccccc3)CC2c2ccc(Cl)cc2)n1", "read by": "MTT / absorbance", "result": "0.47 µM"}
{"structure": "Nc1ccn([C@H]2C[C@]3(CO2)CC(F)(F)P(=O)(O)O3)c(=O)n1", "read by": "MTT", "result": "90 µM"}
{"structure": "C(CCC1CNCCNCCCNCCNC1)CCC1CNCCNCCCNCCNC1", "result": "140 µM"}
{"structure": "Cc1c(CC23CC4CC(CC(C4)C2)C3)nc(SCC(=O)Nc2ccccc2)[nH]c1=O", "read by": "MTT / absorbance", "result": ">295 µM"}
{"structure": "Cc1cc(C#N)cc(C)c1Oc1ccc([N+](=O)[O-])c(NC2CCN(Cc3ccc(S(N)(=O)=O)cc3)CC2)n1", "read by": "MTT", "result": "27 µM"}
{"structure": "CCCCCCCCOC(=O)P(=O)(O)OC[C@H]1O[C@@H](n2cc(C)c(=O)[nH]c2=O)C[C@@H]1N=[N+]=[N-]", "result": "42 µM"}
{"structure": "CCCCNC(=O)Oc1nsnc1-c1c(Cl)cccc1Cl", "result": "139 µM"}
{"structure": "O=C(N/N=C/c1ccc(Cl)cc1O)c1csc(N2N=C(c3ccccc3)CC2c2ccc(Cl)cc2)n1", "read by": "MTT / absorbance", "result": "0.45 µM"}
{"structure": "CCc1c(CC23CC4CC(CC(C4)C2)C3)nc(SCC(=O)c2ccccc2)[nH]c1=O", "read by": "MTT / absorbance", "result": "20.42 µM"}
{"structure": "CC1(C)S[C@H]([C@H](NC(=O)Cc2ccccc2)C(=O)NCc2ccccc2)N[C@H]1C(=O)N[C@H](Cc1ccccc1)[C@H](O)CC(=O)NCc1ccccc1", "result": ">100 µM"}
{"structure": "Cc1cc(C)c(Oc2ccc(N)c(NC3CCN(Cc4ccc(S(C)(=O)=O)cc4)CC3)n2)c(C)c1", "read by": "MTT", "result": "28 µM"}
{"structure": "CCC(C)Oc1nc(N)cc(S(=O)(=O)c2cc(C)cc(C)c2)n1", "result": "33 µM"}
{"structure": "CC(C)(C)C(=O)SCCOC(=O)P(=O)(O)OCCSC(=O)C(C)(C)C", "result": ">100 µM"}
{"structure": "O=C(CSc1nncnc1-c1cccc2ccccc12)Nc1cccnc1Cl", "read by": "MTT", "result": "44 µM"}
{"structure": "Nc1ncnc2c1ncn2[C@@H]1C=C(CO)[C@@H](O)[C@H]1O", "read by": "trypan blue", "result": "0.016 µg/mL"}
{"structure": "Nc1nc2c(ncn2[C@H]2C[C@]3(CO2)CC(F)(F)P(=O)(O)O3)c(=O)[nH]1", "read by": "MTT", "result": ">100 µM"}
{"structure": "Cc1cc(C)c(Oc2ccc([N+](=O)[O-])c(NC3CCN(Cc4ccc(S(N)(=O)=O)cc4)CC3)n2)c(C)c1", "read by": "MTT", "result": "22 µM"}
{"structure": "O=C(CSc1nncnc1-c1cccc2ccccc12)Nc1ccccc1F", "read by": "MTT", "result": "65 µM"}
{"structure": "CN(C)c1ncnc2c1ncn2[C@H]1CC[C@@H](CO)O1", "result": "132.4 µM"}
{"structure": "CCOP(=O)(OCC)C(F)(F)C[C@@]1(O)CO[C@@H](n2cc(C)c(=O)[nH]c2=O)C1", "read by": "MTT", "result": ">100 µM"}
{"structure": "CN(C)C(=O)Oc1nsnc1-c1ccccc1", "result": "210 µM"}
{"structure": "O=C(CSc1nncnc1-c1ccccc1Cl)N1CCc2ccccc2C1", "read by": "MTT", "result": ">38 µM"}
{"structure": "COc1ccccc1N1CCN(c2c(F)cc3c(=O)c(C(=O)O)cn(C4CC4)c3c2OC(F)F)CC1", "result": "6 µM"}
{"structure": "CCCCSc1cc(N)nc(Nc2cccc3ccccc23)n1", "result": "100 µM"}
{"structure": "O=C(N/N=C/c1ccccc1[N+](=O)[O-])c1csc(N2N=C(c3ccccc3)CC2c2ccc(Cl)cc2)n1", "read by": "MTT / absorbance", "result": ">125 µM"}
{"structure": "Cc1cc(C#N)cc(C)c1Oc1ccc([N+](=O)[O-])c(NC2CCN(Cc3ccncc3)CC2)n1", "read by": "MTT", "result": "26 µM"}
{"structure": "N#C[C@]1(CO)O[C@@H](n2cnc3c(N)ncnc32)C[C@@H]1O", "read by": "MTT", "result": "12 µM"}

4 of the rows above, restated:

{"structure": "CCCCSc1cc(N)nc(Nc2cccc3ccccc23)n1", "result": "100 µM"}
{"structure": "CCCCN(CC)C(=O)Oc1nsnc1-c1c(Cl)cccc1Cl", "result": "44 µM"}
{"structure": "CC(C)(C)NC(=O)[C@@H]1CSCN1C(=O)[C@@H](O)[C@H](Cc1ccccc1)NC(=O)[C@H](CC(F)(F)F)NC(=O)COc1cccc2cnccc12", "read by": "MTT", "result": "25 µg/mL"}
{"structure": "C=C1[C@@H](CO)C[C@H]1n1cnc2c(N)ncnc21", "result": "100 µM"}

Lines come from different laboratories, so protocols vary.